Measured values: article PMC11891622 (Angewandte Chemie (International Ed. in English), 2025)

Target: SARS-CoV-2 Nucleocapsid protein N-terminal globular domain NTD (44–180) (Severe acute respiratory syndrome coronavirus 2, UniProt P0DTC9)
Assay type: binding
Settings: pH 6.5

## Ac‐Glu‐Gly‐Glu‐Gly‐Glu‐Gly‐Gly‐Glu‐gggg‐Glu‐Gly‐Gly‐Glu‐Gly‐Glu‐(β‐Ala)‐Glu [P-PNA]
  average of the dissociation constants (Kd) for the most perturbed residues: in the range of hundred micromolar
